Assay: Foam measurement (Hart de George method)
Format: physicochemical
Settings: for foam: water of hardness 150 ppm
[1] = 1% of substance in 9% SLES solution

Substance | Foam Height (mL) pH 6.0 [1] [mL] | Foam Height (mL) pH 8.0 [1] [mL] | foam (1% of substance mixed with SLES (9%), Hart de George method) [cc] | effect on foaming power / foaming characteristics of anionic surfactants (sodium laureth sulphate, Hart de George method) | foam (9% solution, Hart de George method) | Foam Height (mL) pH 6.0 (10% solution) [mL] | Foam Height (mL) pH 8.0 (10% solution) [mL]
N-Alkyl, N,N-dimethyl, N-benzyl ammonium chloride [Benzalkonium chloride] | 370 | 380 | 380 | significant depression |  |  | 
Sodium lauryl ether sulphate [Sodium lauryl ether sulphate (SLES)] |  |  |  |  | around 600 ccs | 600 | 600
